Target: RRS1-S-YFPv (Arabidopsis thaliana (Col-0 accession))
Test: FRET or BRET

## PopP2-CFP (from UniProt Q8Y125 1-488) (natural protein)
  FRET efficiency E: 21%
  decrease of donor lifetime (delta t = tauD - tauDA): 497 ps
  mean CFP donor lifetime with acceptor (tau): 1.89 ns

Source: PMC2987829, “Autoacetylation of the Ralstonia solanacearum Effector PopP2 Targets a Lysine Residue Essential for RRS1-R-Mediated Immunity in Arabidopsis” (2010)
